A mixed list of measured activities; the numbers were collected in NIAID ChemDB.

Common to all: host cell toxicity; cell line: H9; read by: cell count; read-out: CC50

CCn: concentration that lowers growth or viability of the cells by n%.

CC1(C)Oc2ccc3ccc(=O)oc3c2[C@@H](OC(=O)C23CCC(C)(C(=O)O2)C3(C)C)[C@H]1OC(=O)C12CCC(C)(C(=O)O1)C2(C)C ; result: >16.1 µM
COc1c(C)c(O)c(C=O)c2c1C(=O)C[C@@H](c1ccccc1)O2 ; result: 108 µg/mL
O=C(O)[C@H]1O[C@@H](Oc2c(-c3ccc(O)c(O)c3)oc3cc(O)cc(O)c3c2=O)[C@H](O)[C@@H](O)[C@@H]1O ; result: >100 µg/mL
COC1=C(C)C(O)=C(C(=O)/C=C/c2ccccc2)C(=O)C1(C)C ; result: 2.29 µg/mL
COc1cc2c(cc1OC)[C@@H](Cc1ccc(OC)c(Oc3cc4c(cc3OC)CCN(C)[C@@H]4Cc3ccc(O)cc3)c1)N(C)CC2 ; result: 6.87 µg/mL
COc1cc2c[n+](C)c3c4cc5c(cc4c(CC(C)=O)cc3c2cc1OC)OCO5 ; result: 0.209 µg/mL
COc1cc2c(cc1O)CC[N+](C)(C)[C@@H]2Cc1ccc(O)cc1 ; result: >100 µg/mL
COc1c2ccoc2nc2c(OC)cccc12 ; result: 23.1 µg/mL
Cc1c(O)c(C)c2c(c1O)C(=O)C[C@@H](c1ccccc1)O2 ; result: 20.8 µg/mL
COc1cc2c(cc1O)[C@@H](Cc1ccc(O)cc1)N(C)CC2 ; result: 1.45 µg/mL
COc1cc(OC)c2ccc(=O)oc2c1OC ; result: >100 µg/mL
Cc1c(O)c(C=O)c(O)c2c1O[C@H](c1ccccc1)CC2=O ; result: 104 µg/mL
O=Cc1ccc(O)cc1 ; result: 22.3 µg/mL
COc1c(C)c(O)c2c(=O)cc(-c3ccccc3)oc2c1C ; result: 19.8 µg/mL
COc1cc2c(cc1OCc1ccccc1)C(Cc1ccc(Br)cc1)N(Cc1ccccc1)CC2 ; result: 7.5 µg/mL
COc1ccc([C@@H](CNC(=O)c2ccccc2)OC)cc1 ; result: 16.4 µg/mL
COc1ccc(C[C@@H]2c3cc(Oc4cc(C[C@@H]5c6cc(O)c(OC)cc6CCN5C)ccc4O)c(OC)cc3CCN2C)cc1 ; result: 5.17 µg/mL
COc1c(C)c(O)c2c(c1C=O)O[C@@H](C)[C@H](C(=O)c1ccccc1)C2=O ; result: 1.89 µg/mL

2 of the rows above, restated:

smiles,result
O=Cc1ccc(O)cc1,22.3 µg/mL
COc1c(C)c(O)c2c(=O)cc(-c3ccccc3)oc2c1C,19.8 µg/mL

Conditions beyond the fields shown may differ between rows.